# Data taken from article PMC9744275, “Pterin-based small molecule inhibitor capable of binding to the secondary pocket in the active site of ricin-toxin A chain” (2022).
# How the values were obtained:
# RTA = conditions: cited from earlier work
# [1] = biological target: Ricin toxin A-chain (RTA) (Ricinus communis, UniProt P02879)
SMILES,IC50 (RTA),IC50 [1]
Nc1nc2nc(C(=O)NCC(=O)NC(Cc3ccccc3)C(=O)O)cnc2c(=O)[nH]1 (stereo not shown),20 µM,30.8 µM
Nc1nc2nc(C(=O)NCC(=O)NC(Cc3ccccc3)C(=O)NC(Cc3ccccc3)C(=O)O)cnc2c(=O)[nH]1 (stereo not shown),15 µM,
Nc1nc2nc(C(=O)NCC(=O)NCC(=O)O)cnc2c(=O)[nH]1,400 µM,
